The experiment deals with Ebolavirus. Put plainly: Antiviral activity against Ebolavirus infected in human HuH7 cells after 48 hrs by immunofluorescence assay. The experiment is classed as functional, cell-based. The settings on record: Orthoebolavirus, Huh-7, 48 h.

Molecules are shown by their SMILES.

The text below walks through data of ChEMBL document CHEMBL4138316, “Optimization of Isothiazolo[4,3- b]pyridine-Based Inhibitors of Cyclin G Associated Kinase (GAK) with Broad-Spectrum Antiviral Activity” (J Med Chem, 2018).

By EC50 is commonly meant the concentration giving half of the maximal effect. A low value points to higher potency in that assay. The compound `COc1cc(-c2cnc3c(N4CCOCC4)snc3c2)ccc1N` had an EC50 of 11.9 µM.
